{
  "source": "paper PMC11522906",
  "target": "cytochrome b (Pfbc1 complex) (Plasmodium falciparum, UniProt Q02768)",
  "test": "bc1 activity in extracted parasite mitochondria (decylubiquinol-driven cytochrome c reduction); supported by V259L resistance selection and Y268S cross-resistance",
  "data": [
    {"smiles": "O=c1[nH]c(N2CCOCC2)nc2c1CCN(Cc1ccc(Cl)cc1F)CC2", "values": [
      {"measurement": "EC50", "value": 9.06, "unit": "µM"}
    ]}
  ]
}
